{
  "source": "patent US20250195682A1",
  "about": "“IMPROVED CELL-TARGETING BINDING MOLECULE” (priority 2018, published 2025)",
  "tested_on": "MDA-MB-468 cells (HER2−/EGFR++)",
  "test": "Cell viability (MTS) assay, MDA-MB-468 cells",
  "format": "cell-based, human",
  "details": "for cell killing activity: substance alone",
  "data": [
    {"substance": "cetuximab-Cys-(dendron(-L-SO1861)^4)^3,9: Dendron(-L-SO1861)^4 conjugated to cetuximab via cysteine residues, DAR3,9", "values": [
      {"measurement": "IC50", "setting": "+ 10 pM cetuximab-saporin, read-out: IC50 cell killing", "value": 0.4, "unit": "nM"},
      {"measurement": "cell killing activity", "value": "not induced"},
      {"measurement": "cell killing activity", "setting": "listed as Cetuximab-Cys-(dendron(-L-SO1861)^4)^3,9", "value": "could not be induced"}
    ]}
  ]
}
